Results of unrelated studies side by side (data: NIAID ChemDB).

All rows: growth or infection tests; agent: Mycobacterium avium complex; measure: MIC

Conditions beyond the fields shown may differ between rows.

NCC[C@H](O)C(=O)N[C@@H]1C[C@H](N)[C@@H](O[C@H]2O[C@H](CN)[C@@H](O)[C@H](O)[C@H]2O)[C@H](O)[C@H]1O[C@H]1O[C@H](CO)[C@@H](O)[C@H](N)[C@H]1O ; strain: 1423/HIV+ ; value: 2 µg/mL
NCCC(O)C(N)CC(=O)NC1CNC(=O)C(C2CCN=C(N)N2)NC(=O)/C(=C/NC(N)=O)NC(=O)C(CO)NC(=O)C(CO)NC1=O ; strain: 13008 (serotype 20) ; value: 3.2 µg/mL
CNC1CCN(c2c(F)cc3c(=O)c(C(=O)O)cn(C4CC4)c3c2F)C1 ; strain: 1988557 ; value: 2 µg/mL
CO[C@H]1/C=C/O[C@@]2(C)Oc3c(C)c(O)c4c(O)c(c(/C=N/N5CCN(C)CC5)c(O)c4c3C2=O)NC(=O)/C(C)=C\C=C\[C@H](C)[C@H](O)[C@@H](C)[C@@H](O)[C@@H](C)[C@H](OC(C)=O)[C@@H]1C ; strain: 1168 ; value: 8 µg/mL
NCC1CCN(c2c(F)cc3c(=O)c(C(=O)O)cn(C4CC4)c3c2F)C1 ; strain: 1760694 ; value: 4 µg/mL
CC(C)N=c1cc2n(-c3ccc(Cl)cc3)c3ccccc3nc-2cc1Nc1ccc(Cl)cc1 ; strain: 5718 ; value: 4 µg/mL
NC[C@@H]1O[C@H](O[C@H]2[C@@H](O)[C@H](O[C@@H]3[C@@H](O)[C@H](N)C[C@H](N)[C@H]3O[C@H]3O[C@H](CO)[C@@H](O)[C@H](O)[C@H]3N)O[C@@H]2CO)[C@H](N)[C@@H](O)[C@@H]1O ; strain: TMC 1403 ; value: 0.78 µg/mL
CC1COc2c(N3CCN(C)CC3)c(F)cc3c(=O)c(C(=O)O)cn1c23 ; strain: 1110/HIV- ; value: 8 µg/mL
NCC[C@H](O)C(=O)N[C@@H]1C[C@H](N)[C@@H](O[C@H]2O[C@H](CN)[C@@H](O)[C@H](O)[C@H]2O)[C@H](O)[C@H]1O[C@H]1O[C@H](CO)[C@@H](O)[C@H](N)[C@H]1O ; strain: 3219 ; value: 32 µg/mL
NNC(=O)c1ccncc1 ; strain: 13011 (serotype 16) ; value: 0.4 µg/mL
CC[C@@H](CO)NCCN[C@@H](CC)CO ; strain: N-259 (HIV-) ; value: 32 µg/mL
CC1CN(c2cc3c(cc2F)c(=O)c(C(=O)O)cn3-c2ccc(F)cc2F)CCN1 ; strain: 3220 ; value: 8 µg/mL
CC1(CN)CCN(c2c(F)cc3c(=O)c(C(=O)O)cn(C4CC4)c3c2F)C1 ; strain: 1915112 ; value: 32 µg/mL
NCC[C@H](O)C(=O)N[C@@H]1C[C@H](N)[C@@H](O[C@H]2O[C@H](CN)[C@@H](O)[C@H](O)[C@H]2O)[C@H](O)[C@H]1O[C@H]1O[C@H](CO)[C@@H](O)[C@H](N)[C@H]1O ; strain: CH-2/HIV+ ; value: 2.5 µg/mL
O=C(O)c1cn(C2CC2)c2c(F)c(N3CCC(NC4CC4)C3)c(F)cc2c1=O ; strain: PI12/39 ; value: 1 µg/mL
CC[C@@H](CO)NCCN[C@@H](CC)CO ; strain: 921-5 ; value: 1.9 µg/mL
CC(C)(N)C1CCN(c2c(F)cc3c(=O)c(C(=O)O)cn(C4CC4)c3c2F)C1 ; strain: 1760694 ; value: 8 µg/mL
CN[C@@H]1[C@H](O[C@H]2[C@H](O[C@H]3[C@H](O)[C@@H](O)[C@H](N=C(N)N)[C@@H](O)[C@@H]3N=C(N)N)O[C@@H](C)[C@]2(O)C=O)O[C@@H](CO)[C@H](O)[C@H]1O ; strain: isolate C-17 19 26 34 44 ; value: ≤12.5 µg/mL
CN1CCN(c2cc3c(cc2F)c(=O)c(C(=O)O)cn3-c2ccc(F)cc2)CC1 ; strain: 3220 ; value: 32 µg/mL
NCC[C@H](O)C(=O)N[C@@H]1C[C@H](N)[C@@H](O[C@H]2O[C@H](CN)[C@@H](O)[C@H](O)[C@H]2O)[C@H](O)[C@H]1O[C@H]1O[C@H](CO)[C@@H](O)[C@H](N)[C@H]1O ; strain: TMC 1411 ; value: 0.19 µg/mL
CCn1cc(C(=O)O)c(=O)c2cc(F)c(N3CCNCC3)cc21 ; strain: CIPT 14031003 ; value: 20 µg/mL
CC1CN(c2c(F)c(N)c3c(=O)c(C(=O)O)cn(C4CC4)c3c2F)CCN1C ; strain: 1915112 ; value: 1 µg/mL
CN[C@@H]1[C@H](O[C@H]2[C@H](O[C@H]3[C@H](O)[C@@H](O)[C@H](N=C(N)N)[C@@H](O)[C@@H]3N=C(N)N)O[C@@H](C)[C@]2(O)C=O)O[C@@H](CO)[C@H](O)[C@H]1O ; strain: TMC 1469 ; value: 1.56 µg/mL
CCn1cc(C(=O)O)c(=O)c2cc(F)c(N3CCN(C)CC3)cc21 ; strain: CIPT 14031006 ; value: 2 µg/mL
CN[C@@H]1[C@@H](O)[C@@H](O[C@@H]2[C@@H](O)[C@H](O[C@H]3O[C@H](CN)CC[C@H]3N)[C@@H](N)C[C@H]2N)OC[C@]1(C)O ; strain: Isolate 93 ; value: 6.25 µg/mL
NC[C@H]1O[C@H](O[C@H]2[C@H](O)[C@@H](O[C@H]3O[C@H](CO)[C@@H](O)[C@H](N)[C@H]3O)[C@H](N)C[C@@H]2N)[C@H](O)[C@@H](O)[C@@H]1O ; strain: N-951 (HIV+) ; value: 8 µg/mL
NC[C@H]1O[C@H](O[C@H]2[C@H](O[C@@H]3O[C@H](CO)[C@@H](O)[C@H]3O)[C@@H](O)[C@H](N)C[C@@H]2N)[C@H](N)[C@@H](O)[C@@H]1O ; strain: Isolate 49 ; value: 12.5 µg/mL
O=C(O)c1cn(C2CC2)c2c(F)c(N3CCSCC3)c(F)cc2c1=O ; strain: 1915112 ; value: 4 µg/mL
CO[C@H]1/C=C/O[C@@]2(C)Oc3c(C)c(O)c4c(O)c(c(/C=N/N5CCN(C/C=C/c6ccccc6)CC5)c(O)c4c3C2=O)NC(=O)/C(C)=C\C=C\[C@H](C)[C@H](O)[C@@H](C)[C@@H](O)[C@@H](C)[C@H](OC(C)=O)[C@@H]1C ; strain: CH4 ; value: 0.06 µg/mL
COC1CCN(c2c(F)cc3c(=O)c(C(=O)O)cn(C4CC4)c3c2F)C1 ; strain: 1915112 ; value: 1 µg/mL
CC[C@@H](CO)NCCN[C@@H](CC)CO ; strain: 1069 ; value: 8 µg/mL
NC[C@H]1O[C@H](O[C@H]2[C@H](O)[C@@H](O[C@H]3O[C@H](CO)[C@@H](O)[C@H](N)[C@H]3O)[C@H](N)C[C@@H]2N)[C@H](N)[C@@H](O)[C@@H]1O ; strain: TMC 1411 ; value: 0.1 µg/mL

Repeating the first 2 entries:

SMILES	strain	value
NCC[C@H](O)C(=O)N[C@@H]1C[C@H](N)[C@@H](O[C@H]2O[C@H](CN)[C@@H](O)[C@H](O)[C@H]2O)[C@H](O)[C@H]1O[C@H]1O[C@H](CO)[C@@H](O)[C@H](N)[C@H]1O	1423/HIV+	2 µg/mL
NCCC(O)C(N)CC(=O)NC1CNC(=O)C(C2CCN=C(N)N2)NC(=O)/C(=C/NC(N)=O)NC(=O)C(CO)NC(=O)C(CO)NC1=O	13008 (serotype 20)	3.2 µg/mL